Assay results: PMC10653858 (mBio, 2023)

Biological target: T1, biotin-conjugated histone H3 (1-21aa) peptide, …-GGK(Biotin)-NH2 (biotin on the C-terminal lysine; C-terminal amide)
T1 construct: also called p1
Test: pull-down

B1: GST-tagged LegAS4-Asn493Tyr (enzyme)
chain: MIILYDFLQESSVMPRSKNDSKLKKKSALQSKFKEQQLNHGSKEHKSKFKFSQRKAKKKGPGMTHLPGNIYTLFTPVNGPKSKDEWIDTSKIMLDLHIDNMSSSDYIPSAIDRTDLVMVQSVHLLRKTGGRGLFAREDIPKGTCIGIYTGEVYSEQEFEQYLKEHVGSDKSYAMYVGGRVIDAARKGNLTRYINFSDSQDNAEFVETTLNRKKVAKVITTKNIKAGQQLLINYNTYEEQASRYYYFLNPGDGWLSAQEFYQTYQSQYRLEQMPYNLEGFDLKAGDRVLMTQIGRIILANYSLAKEQELNASDIDLPFLKVGSDEKILDFDEADTFTPLMAACYLGQVENVKWLIEHGANIDQQQSHSGHCPLSLTLKGYSLAKDTQKYIDIIQLLIKNQVNLLVHDRSDKTFLHNAALVLNNLDFQSVVKFLIGQNPIDINEYFTYIDENDFDIVMHCYNNKLFDKALVLLAFYPDYFKRNYMSDNEGHNQFYINAFRKAIKDFNSNERSILLMQLRESGLHLPEDLLEQLGIMDSSITLESKFF
binding result: binds
